# Patent publication US20120322768A1, “COMPOUNDS, COMPOSITIONS AND METHODS FOR TREATING PROTOZOAN INFECTIONS” (QUEEN MARY & WESTFIELD COLLEGE, priority 2009, published 2012)
# Columns and labels:
# [1] = test system: insect form Leishmania major; assay: Growth inhibition of L. major promastigotes (Alamar blue); type: cell-based; conditions: read-out: IC50 L. major, 6 days
# [2] = test system: bloodstream form T. brucei; assay: Anti-proliferative assay on T. brucei bloodstream form (Alamar blue); type: cell-based; conditions: read-out: IC50 T. bruccei, 3 days
Compound,IC50 [1] [µM],IC50 [2] [µM]
3-Fluoro-4-nitrobenzyl phosphoramide mustard,9.05,3.2
"CC1CS(=O)(=O)CCN1/N=C/c1ccc([N+](=O)[O-])o1 (stereo not drawn) [Nifurtimox, reference compound]",–,1.8
